Results taken from US20240082282A1 (priority 2020, published 2024).

Test system: B. burgdorferi N40
Assay: Bait experiment in infected mice
Assay type: in vivo, C3H mice
Details: bait once a day for 5 days, HygA 200 mg/kg or doxycycline 100 mg/kg; sacrificed 3 days after treatment
Description: Mice were infected with B. burgdorferi.
To prepare the mouse bait, 2 g of Bait formulation 3 (Food source), 0.5 g freshly ground peanut butter (Whole foods), 35 μl of green food coloring mix (Whole foods) were added into a 60 mm Petri dish. Boiling water (4 mL) was added and mixed with a spatula. The mixture was then dispensed into wells of a 96 well plate with a spatula such that about ⅔rd of the well was full. Antibiotics or vehicle were added at appropriate volume and mixed with a pipette tip. Added volume was kept below 60 μL per well. The bait was allowed to air dry/solidify for a few hours and the prepared baits were stored at 4° C. until use.
To ensure that the bait would be consumed, mice were housed individually with their mouse chow withheld during treatment. The doses used in mice were matched to the pharmacokinetic profile of humans given ceftriaxone 1 g every 12 hours (Sai Life Sciences Ltd, India) and doxycycline 100 mg every 12 hours.
Skin was used for liquid culture, and RNA extraction. All other tissues were used for RNA extraction. The growth of B. burgdorferi in 10 day liquid cultures was detected by dark field microscopy with a 100× objective.

## Hygromycin A
  Infection status by culture and PCR after bait: clear of infection by culture and PCR
